Experimental findings from patent US20100284992A1 (priority 2006, published 2010) are described below.

The target in this assay is Pseudomonas aeruginosa hemolytic phospholipase C PlcHR2 variant T178A (Thr178Ala) (Pseudomonas aeruginosa, UniProt P06200, T178A). The experiment in a line: ρ-Nitrophenyl-Phosphorylcholine (NPPC) enzymatic assay, T178A PlcHR2 mutant. The note with it: substrate NPPC; 100 mM Tris-HCl (pH 7.2), 25% glycerol, 37° C.; T178A 0.05 μg/ml; four independent determinations.

Broadly, the Vmax is the rate approached at saturating substrate. `C[N+](C)(C)CCOP(=O)([O-])Oc1ccc([N+](=O)[O-])cc1` [NPPC, ρ-nitrophenyl-phosphorylcholine]: the maximum rate (Vmax) stood at 4.85 ± 1 µmol/min/mg.
